Measurements taken from PMC8092284.

Tested on: ChiS DBD (ChiS1024-1129) (Vibrio cholerae)
Assay: EMSA
Conditions: 0-400 nM protein; recombinant protein; label: Cy5 (Cy5-dCTP by PCR per Methods, 1-2 per probe)

## GGTATTTTGACGTTAATGACGTAGGGCATCTAGGTTTTGACGTTTTTAACGGGAATTGCA (double strand) [Pchb WT 60 bp]
  binding result: binds

The exact form of at least one protein or probe is not confirmed.
